Source: ChEMBL document CHEMBL3988442, “University of Dundee, Small-Polar-MMV Screening Library” (2021).

A: 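Growth of Mycobacterium tuberculosis over 3 days (7H9 medium with glucose and tyloxapol); the read-out is not stated. Tested at 500 µM. Higher reads as more growth inhibition (inferred: compounds with an IC50 in retests scored well above the rest). Size under these conditions: about 18,000 compounds, about 1,400 of them at 50% or above in at least one test.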
B: 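Phenotypic screen: M. tuberculosis growth, cholesterol and DPPC medium, 4 days; the read-out is not stated. Concentration: 500 µM. Direction is inferred from retests: higher values go with more growth inhibition. About 18,000 compounds were tested under these conditions; 5% (about 900) showed 50% or more at least once.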

The filed quantity is “Percent Effect” (%). The record does not define 0% and 100%; most values in the screen are far below 50% and negative numbers occur (in some assays of this library far below -100). Many other results are left out here, so strong results are more common than in the screen. A dash means the value is not listed here; it may have been measured.

Compound | A | B
CC(C)C(Nc1cnn(C)c(=O)c1Cl)C(N)=O (centres unmarked) | 7.487 | -
CCC[C@H]1CN(C(=O)Cc2cccc(OC)c2)C[C@@H]1N | - | 21.76
CC(C)n1nc(C(=O)N(C)C)c2ccccc2c1=O | 21.48 | -
CNC(=O)CN1CCC(OCCCc2ccccc2)C1 (centres unmarked) | 60.02 | 44.61
CCN1CCCN(CC(=O)NC(C)(C#N)C(C)C)CC1 (centres unmarked) | - | -2.579
Cc1noc(C)c1CC(=O)NC1CC1 | -2.4 | -
CCOc1ccc2cc(S(=O)(=O)NCCO)ccc2c1 | 101.6 | 111.5
CCN1CCC(NC(=O)C2CCCC2)CC1 | - | 8.132
Cc1cc(C)n(-c2ccc(CNC(=O)C(C)N)cn2)n1 (centres unmarked) | 40.24 | -
COCCN(C(=O)Cc1cccc(C)c1)C(C)C(N)=O (centres unmarked) | - | 4.316
CCC(C(=O)NCc1cn2c(n1)SCC2)n1cccn1 (centres unmarked) | 17.19 | -
O=C(CC1CCNC1)N1CCC(c2ncc[nH]2)CC1 (centres unmarked) | -0.5045 | -
COc1ncccc1C(=O)NCCc1cncn1C | 8.792 | 9.841
Cc1ccc(C(=O)NCCCn2ccnc2)s1 | 10.68 | -
CCNC(=O)CNc1ccnc2ccc(Br)cc12 | 5.745 | 18.79
NS(=O)(=O)c1ccc(O)c(F)c1 | 7.147 | -0.1134
CC(C)N(C(=O)C1CCNCC1)C(C)C | 0.3769 | -
CCNCc1cc(OC)c(OCC(N)=O)c(OC)c1 | - | 1.936
CC(C)n1cnnc1CCNC(=O)CCC(F)(F)F | 3.387 | -
CC(C)(C)OC(=O)NCCC1CCCNC1 (centres unmarked) | 23.14 | -
COc1cc(C)c(CNC2CC(=O)N(C)C2)cc1OC (centres unmarked) | 0.2777 | -
NC1CCN(c2ccccc2F)C1 (centres unmarked) | 9.58 | -
C[n+]1ccn(C(=O)N2CCCCCC2)c1.[I-] | 22.97 | -
Cc1ccc(C(N)CF)cc1 (centres unmarked) | 7.678 | -
NCC1(CC(N)=O)CC1 | 10.76 | -
CN(C)[C@@H]1CN(C(=O)c2c(F)cccc2Cl)C[C@H]1CO | - | -38.27
Cc1nc(CN2CCN(C(=O)c3cnc[nH]3)CC2)cs1 | 13.33 | -
[H][C@]12CNC[C@]([H])(CN(S(=O)(=O)c3ccc(F)cc3)C1)O2 | -0.08804 | -
O=C(NCCc1cccnc1)c1cc(C2CC2)on1 | 53.62 | -5.424
CC(=O)c1ccc(CNC(=O)c2scnc2C)nc1C | 6.221 | -
NCC1CCN(Cc2cc(=O)c3cc(F)ccc3[nH]2)C1 (centres unmarked) | 47.81 | -
O=C1NCCOc2ccc(Br)cc21 | - | -12.24
CN(CC(=O)N1CCSCC1)C(=O)OC(C)(C)C | 4.426 | -
COCCN(CC(F)F)C(=O)NCc1ccco1 | - | -0.3612
CCC(C)NC(=O)c1cnn2cccnc12 (centres unmarked) | - | -19.41
CS(=O)(=O)c1cccc(NC(=O)c2cnccn2)c1 | - | -11.58
N#Cc1ccnc(NCCC(=O)NC2CCCCC2)c1 | -12.35 | -29.18
CN(CC(=O)Nc1ccc(Br)cn1)C1CCOC1=O (centres unmarked) | 20.76 | -
CCc1noc(C2(O)CCNC2)n1 (centres unmarked) | - | 7.877
COCc1cc(=O)[nH]c(C2(N)CCCC2)n1 | 10.23 | -
O=C(Cn1nnc(-c2ccccc2)n1)N1CCCC1 | 45.05 | 41.01
COCCn1nc(C(=O)Nc2cc(C)on2)ccc1=O | 2.02 | -
CC(=O)NC1CCN(Cc2cnc(N(C)C)nc2)C1 (centres unmarked) | -1.404 | -
N#Cc1cnc(NCC2(O)CCC2)cn1 | 5.948 | -
N#CCOc1ccc(NC(=O)c2ccncc2)cc1 | 32 | -
COCCN1CCC(NC(=O)Nc2ccccc2)C1 (centres unmarked) | - | -4.043
CNCc1nc2ccccc2n1CCO | 6.727 | -
O=c1ccc(F)cn1Cc1ncn(-c2ccccc2)n1 | -4.035 | -
COc1ccccc1C(=O)N(C)C1CCN(C)CC1 | 2.234 | -
NC(=O)CCc1ccc(S(=O)(=O)N2CCCCC2)cc1 | - | 6.484
NCC(=O)Nc1ccccc1-n1cncn1 | 3.477 | -
COc1ccc(OC)c(NC(=O)COCC(F)(F)F)c1 | 66.49 | -
C=C(C)CN1C(=O)Nc2ccccc2S1(=O)=O | 66.8 | 69.59
CN(C(=O)CCNC(=O)C1CCCO1)c1ccccc1 (centres unmarked) | 11.22 | -
c1ccc(-n2nnnc2CN2CCNCC2)cc1 | - | -1.715
CC1CCC(NC(=O)Cn2cnc(C#N)n2)CC1 (centres unmarked) | 58.03 | -
O=C(NCCO)NCc1c(F)cc(Br)cc1F | 20.03 | 3.066
Cc1cc(C)n(CC(=O)NCc2ccc(F)cc2)n1 | 64.96 | -
O=C(OCC(=O)N1CCNC1=O)c1ccc(O)cc1 | 19.07 | -

Once more, the final 4:

{"compound": "CC1CCC(NC(=O)Cn2cnc(C#N)n2)CC1", "stereo": "centres unmarked", "A": 58.03}
{"compound": "O=C(NCCO)NCc1c(F)cc(Br)cc1F", "A": 20.03, "B": 3.066}
{"compound": "Cc1cc(C)n(CC(=O)NCc2ccc(F)cc2)n1", "A": 64.96}
{"compound": "O=C(OCC(=O)N1CCNC1=O)c1ccc(O)cc1", "A": 19.07}